Key:
[1] = biological target: 2Cys site directed variant of H3 A/Perth/16/2009 rHA (C524S, C528A) (influenza A virus, H3 A/Perth/16/2009); experiment: cross-linking
[2] = biological target: 3Cys site directed variant of H3 A/Perth/16/2009 rHA (C539A, C546A, C549A) (influenza A virus, H3 A/Perth/16/2009); experiment: cross-linking

Substance | percent cross-linked after 1 month at 25°C [1] [%] | percent cross-linked after 1 month at 25°C [2] [%]
2Cys site directed variant of H3 A/Perth/16/2009 rHA (C524S, C528A) (natural protein) | 63 | 
3Cys site directed variant of H3 A/Perth/16/2009 rHA (C539A, C546A, C549A) (natural protein) |  | 15

Reference: article PMC4320835, “Modifications of cysteine residues in the transmembrane and cytoplasmic domains of a recombinant hemagglutinin protein prevent cross-linked multimer formation and potency loss” (2014)
